PubChem BioAssay AID1259414 – Drosophila RNAi Screening Center – 2018
The deposit covers about 24,000 reagents; shown is an unselected part of those with a known target gene and a result. Over the whole deposit, about 1,210 (5%) were called active. 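Inactive calls also include excluded dsRNAs with several or no targets, genes unexpressed in JW18, and well A1, regardless of score.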 Unmarked entries are inactive. A plus sign joins genes that one reagent is predicted to hit.

Aim: 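Fly genes that alter Wolbachia amount inside host cells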 (primary screen)
Cell system: Drosophila JW18 cells infected with Wolbachia
Knock-down reagent: long dsRNA against Drosophila genes, 0.25 µg dsRNA per well of a 384-well plate
Time to read-out: 5 days
Challenge: cells persistently infected with Wolbachia before knock-down; no added drug
Measurement: 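Automated imaging of bacterial rRNA staining divided by host cell count, reported as plate-normalised robust z-score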
Direction: Wolbachia per cell robust z: higher = more Wolbachia per host cell than the plate typical
Rule for the call: 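Active if absolute robust z reaches 1.5 in two or more of three replicates, leaving out multi- or no-target dsRNAs, genes unexpressed in JW18 and A1 wells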

CG43066 (GeneID 37129) [DRSC06927] showed Wolbachia per cell robust z, rep 1 = 0.186; Wolbachia per cell robust z, rep 2 = 0.128; Wolbachia per cell robust z, rep 3 = -0.136.
CG43066 (GeneID 37129) [DRSC26570] showed Wolbachia per cell robust z, rep 1 = 0.387; Wolbachia per cell robust z, rep 2 = -0.929; Wolbachia per cell robust z, rep 3 = -1.87.
Depletion of ro (GeneID 43234) [DRSC17046] gave: Wolbachia per cell robust z, rep 1 = 0.823; Wolbachia per cell robust z, rep 2 = -0.284; Wolbachia per cell robust z, rep 3 = -0.291.
After knock-down of ro (GeneID 43234) [DRSC23565] the results were Wolbachia per cell robust z, rep 1 = 0.4; Wolbachia per cell robust z, rep 2 = 2.07; Wolbachia per cell robust z, rep 3 = 1.45.
Against wapl (GeneID 31187) [DRSC18851], the values are Wolbachia per cell robust z, rep 1 = 1.05; Wolbachia per cell robust z, rep 2 = 0.64; Wolbachia per cell robust z, rep 3 = 0.33.
wapl (GeneID 31187) [DRSC27941] showed Wolbachia per cell robust z, rep 1 = 1.88; Wolbachia per cell robust z, rep 2 = -0.173; Wolbachia per cell robust z, rep 3 = -0.53.
CG45071 + Ctps [DRSC09342] showed Wolbachia per cell robust z, rep 1 = -1.2; Wolbachia per cell robust z, rep 2 = -0.232; Wolbachia per cell robust z, rep 3 = -2.05.
For CG45071 + Ctps [DRSC10729] the deposit lists Wolbachia per cell robust z, rep 1 = 1.01; Wolbachia per cell robust z, rep 2 = 0.893; Wolbachia per cell robust z, rep 3 = 1.24.
For qkr58E-1 (GeneID 37561) [DRSC04709], the entry reads Wolbachia per cell robust z, rep 1 = -0.321; Wolbachia per cell robust z, rep 2 = 0.51; Wolbachia per cell robust z, rep 3 = -0.527.
After knock-down of qkr58E-1 (GeneID 37561) [DRSC23841], the screen gave Wolbachia per cell robust z, rep 1 = -0.831; Wolbachia per cell robust z, rep 2 = -0.309; Wolbachia per cell robust z, rep 3 = -0.996.
For gammaSnap1 (GeneID 37842) [DRSC04686], the entry reads Wolbachia per cell robust z, rep 1 = 0.264; Wolbachia per cell robust z, rep 2 = -0.18; Wolbachia per cell robust z, rep 3 = -0.361.
With knock-down of gammaSnap1 (GeneID 37842) [DRSC28381] the results were Wolbachia per cell robust z, rep 1 = 0.339; Wolbachia per cell robust z, rep 2 = 0.634; Wolbachia per cell robust z, rep 3 = -0.931.
For gammaSnap1 (GeneID 37842) [DRSC38987], the entry reads Wolbachia per cell robust z, rep 1 = 0.484; Wolbachia per cell robust z, rep 2 = -0.336; Wolbachia per cell robust z, rep 3 = -0.902.
CG10513 (GeneID 43051) [DRSC14248] showed Wolbachia per cell robust z, rep 1 = 0.528; Wolbachia per cell robust z, rep 2 = 1.77; Wolbachia per cell robust z, rep 3 = 2.08.

Copied from the entries so far for reference:
CG45071 + Ctps [DRSC09342] — Wolbachia per cell robust z, rep 1 = -1.2; Wolbachia per cell robust z, rep 2 = -0.232; Wolbachia per cell robust z, rep 3 = -2.05
CG45071 + Ctps [DRSC10729] — Wolbachia per cell robust z, rep 1 = 1.01; Wolbachia per cell robust z, rep 2 = 0.893; Wolbachia per cell robust z, rep 3 = 1.24

The list goes on.
After knock-down of CG18635 (GeneID 37031) [DRSC06780] the results were Wolbachia per cell robust z, rep 1 = -0.181; Wolbachia per cell robust z, rep 2 = -1.59; Wolbachia per cell robust z, rep 3 = 0.224.
CG18635 (GeneID 37031) [DRSC25971] gave Wolbachia per cell robust z, rep 1 = 0.0472; Wolbachia per cell robust z, rep 2 = -0.832; Wolbachia per cell robust z, rep 3 = 0.316.
Against Nepl14 (GeneID 42700) [DRSC15631], the values are Wolbachia per cell robust z, rep 1 = -0.526; Wolbachia per cell robust z, rep 2 = 0.582; Wolbachia per cell robust z, rep 3 = -3.95.
Against CG17380 (GeneID 42766) [DRSC15230], the values are Wolbachia per cell robust z, rep 1 = -0.688; Wolbachia per cell robust z, rep 2 = 0.241; Wolbachia per cell robust z, rep 3 = -0.371.
Depletion of Kdm3 (GeneID 41143) [DRSC16393] resulted in: Wolbachia per cell robust z, rep 1 = 0.254; Wolbachia per cell robust z, rep 2 = 0.748; Wolbachia per cell robust z, rep 3 = -2.4.
With knock-down of Kdm3 (GeneID 41143) [DRSC28659] the results were Wolbachia per cell robust z, rep 1 = 1.12; Wolbachia per cell robust z, rep 2 = -1.18; Wolbachia per cell robust z, rep 3 = 0.876.
Depletion of CG32091 (GeneID 39307) [DRSC10820] gave: Wolbachia per cell robust z, rep 1 = 0.395; Wolbachia per cell robust z, rep 2 = 0.447; Wolbachia per cell robust z, rep 3 = -0.0452.
SkpF + CG43795 [DRSC04120] scored Wolbachia per cell robust z, rep 1 = -3.91; Wolbachia per cell robust z, rep 2 = 0.63; Wolbachia per cell robust z, rep 3 = 0.613.
Pld (GeneID 35554) [DRSC04854] showed Wolbachia per cell robust z, rep 1 = 0.181; Wolbachia per cell robust z, rep 2 = -0.797; Wolbachia per cell robust z, rep 3 = 0.805.
Silencing of Pld (GeneID 35554) [DRSC24641] gave: Wolbachia per cell robust z, rep 1 = 1.34; Wolbachia per cell robust z, rep 2 = 0.38; Wolbachia per cell robust z, rep 3 = 0.396.
